Anti-infective test results gathered from many reports (values: NIAID ChemDB through PubChem).

Common to all: whole-cell or culture tests; agent: Mycobacterium tuberculosis

ECn is the concentration giving n% inhibition of infection, replication or growth.

SMILES,dose,mutations,read-out,cells,strain or isolate,read by,value
COc1c(OP2(=S)OCC(C)(C)CO2)cnn(C2CCCCC2)c1=O,-,-,MIC bound,-,H37Rv,BACTEC,>12.5 µg/mL
O=C(N/N=C(\COc1ccc([N+](=O)[O-])cc1)N=Cc1cccnc1)c1ccncc1,-,-,MIC,-,INH-r,-,100 µg/mL
COc1cc(C2CC(c3ccc(O)c(C)c3)=NN2)cc(OC)c1OC,6.25 µg/mL,-,inhibition,-,H37Rv,-,86%
COC1=C[C@@H]2[C@@H]3Cc4ccc(OC)c(O)c4[C@]2(CCN3C)CC1=O,-,-,MIC bound,-,H37Rv,BACTEC,>12.8 µg/mL
O=c1nc(-c2ccccc2Cl)ss1,-,-,MIC99,-,H37Rv,broth dilution,16 µg/mL
C[C@H](O)CC1=C[C@H](O)[C@@H](C)OC1=O,-,-,MIC90,-,-,broth dilution,55 µg/mL
Cc1cc(C(=O)/C=C/c2ccco2)ccc1O,-,-,MIC,-,H37Rv,-,>6.25 µg/mL
CC1CCCC(NCCNCC23CC4CC(CC(C4)C2)C3)C1C,-,-,MIC,-,-,-,9.4 µM
C=C(O)C1=C(C(=C)N(C)C)CC2=C(C1=O)C(O)CCC(C(=O)NCN1CCN(c3c(F)cc4c(c3OC)N(C(C)C)C=C(C(=O)O)C4O)CC1C)C(=O)C(N(C)C)CC2,-,-,MIC90,-,-,broth dilution,0.237 µg/mL
C=C(C)[C@@H]1CC[C@]2(CO)CC[C@]3(C)[C@H](CC[C@@H]4[C@@]5(C)CC[C@H](O)C(C)(C)[C@@H]5CC[C@]43C)[C@@H]12,128 µg/mL,-,inhibition,-,H37Rv,BACTEC,53%
CC(C)c1ccc2c(c1)CC[C@H]1[C@](C)(CNCCNC3CCCC(C)C3C)CCC[C@]21C,-,-,MIC,-,-,-,25 µM
N/C(=N\N=C/c1cn(Cc2cccc(Cl)c2)c2ccccc12)c1ccccn1,-,-,MIC,-,H37RV (INH RMP OFL-S),-,8 µg/mL
CCCCCCCCCCc1cn(Cc2cn([C@H]3C[C@H](O)[C@@H](CO)O3)c(=O)nc2N)nn1,-,-,MIC99,VERO Cell line,MS-115,-,50 µg/mL
NC(=S)Nc1[nH]c(=S)nc2c1SC1=N/C(=C\c3ccco3)C(=O)N12,0.5 µM,-,inhibition,-,-,BACTEC,0%
c1ccc(C(CNCCN2CCCC3CCCCC32)c2ccccc2)cc1,-,-,MIC,-,-,-,18.8 µM
CC(C)(CCC(C)(C)N1OC1c1ccccc1)N1OC1c1ccccc1,12.5 µg/mL,-,inhibition,-,H37Rv,BACTEC,5%
CN[C@@H]1[C@H](O[C@H]2[C@H](O[C@H]3[C@H](O)[C@@H](O)[C@H](N=C(N)N)[C@@H](O)[C@@H]3N=C(N)N)O[C@@H](C)[C@]2(O)C=O)O[C@@H](CO)[C@H](O)[C@H]1O,-,EJMCh4/1 MmpL3 (V285A),MIC90,-,H37Rv,visual reading,1.4 µM
O=c1c2c([nH]c3c1ccc1[nH]c4c(c(=O)c13)CCCC4)CCCC2,12.5 µg/mL,-,inhibition,-,H37Rv,BACTEC,19%
CC1COc2c(N3CCN(C)CC3)c(F)cc3c(=O)c(C(=O)O)cn1c23,-,-,MIC,-,SMI 17,agar,0.5 µg/mL
N/C(=N\N=C/c1c[nH]c2ccccc12)c1ccc2ccccc2n1,-,-,MIC,-,H37RV (INH RMP OFL-S),-,16 µg/mL
CCCCCCCCCCCCc1cn(Cc2cn([C@H]3C[C@H](O)[C@@H](CO)O3)c(=O)[nH]c2=O)nn1,-,-,MIC99,VERO Cell line,MS-115,-,10 µg/mL
COc1cccc(OC/C(N)=N\NC(=O)c2ccncc2)c1,-,-,MIC,-,INH-r,-,100 µg/mL
O=c1nc(-c2cc(F)c(Cl)nc2Cl)ss1,-,-,MIC90,-,H37Rv,broth dilution,1 µg/mL
CCOC(=O)C1CCCc2c1[nH]c1c(C(N)=O)cccc21,-,-,EC50,-,-,broth dilution,3.38 µM
Cc1cc(C2=NNC(c3ccc(N(C)C)cc3)C2)ccc1O,6.25 µg/mL,-,inhibition,-,H37Rv,-,92%
COc1ccc(OC/C(N)=N\NC(=O)c2ccncc2)cc1,-,-,MIC,-,H37Rv(ATCC25584),-,12.5 µg/mL
FC(F)(F)c1ccc2c(c1)N(CCCCl)c1ccccc1S2,12.5 µg/mL,-,inhibition,-,H37Rv,BACTEC,98%
CCNC(=S)c1ccc(SC(C)CC)cc1,-,-,MIC,-,H37Rv,-,315 µM
Cc1cc(C(=O)/C=C/c2cccc([N+](=O)[O-])c2)ccc1O,-,-,MIC,-,H37Rv,-,>6.25 µg/mL
CCc1ccccc1-n1c2nc(=O)n(C)c(=O)c-2nc2ccccc21,-,-,MIC bound,-,H37Rv,BACTEC,>12.5 µg/mL
CCCCC(CC)CN1CN(CC(CC)CCCC)CC(C)(NCCNCc2ccccc2F)C1,-,-,MIC,-,-,-,12.5 µM
CCN1C(=O)C2(CCC(=N)C(C#N)C2)c2ccccc21,-,-,MIC,-,H37Rv,-,0.1 µg/mL
COC(=O)c1cc(-c2ccc(F)cc2F)ccc1O,6.25 µg/mL,-,inhibition,-,H37Rv,resazurin,30%
NNC(=O)c1ccncc1,-,-,MIC99,VERO Cell line,H37Rv,-,0.1 µg/mL
C[C@H](NCCNCc1ccc(C(F)(F)F)cc1)[C@H](O)c1ccc(O)c(O)c1,-,-,MIC,-,-,-,25 µM
Cc1cc2nc(CCC3CCCCC3)[nH]c2cc1C,-,6A MmpL3 (V684A),MIC90,-,H37Rv,visual reading / absorbance,1.93 µM
O=C1C(=O)c2ccccc2C(O)=C1C(C1=C(O)c2ccccc2C(=O)C1=O)c1ccccc1,12.5 µg/mL,-,inhibition,-,H37Rv,BACTEC,22%
O=c1oc(-c2ccc([N+](=O)[O-])cc2Cl)ns1,-,-,MIC99,-,H37Rv,broth dilution,32 µg/mL
N/C(=N\N=C/c1cn(Cc2ccc(Cl)cc2)c2ccccc12)c1ccccn1,-,-,MIC,-,H37RV (INH RMP OFL-S),-,32 µg/mL
CCN1C(=O)C(CCC(=O)O)(CCC(=O)O)c2ccccc21,-,-,MIC,-,H37Rv,-,0.1 µg/mL
CO[C@H]1/C=C/O[C@@]2(C)Oc3c(C)c(O)c4c(O)c(c5c(c4c3C2=O)NC2(CCN(CC(C)C)CC2)N=5)=NC(=O)/C(C)=C\C=C\[C@H](C)[C@H](O)[C@@H](C)[C@@H](O)[C@@H](C)[C@H](OC(C)=O)[C@@H]1C,-,-,MBC,-,1620-6 (RIF-S),-,0.125 µg/mL
C=CCSc1ccc(/C=C/C(N)=S)cc1,-,-,MIC,-,H37Rv,-,63 µM
COc1c(C)c2c(c(O)c1C/C=C(\C)CCC(=O)O)C(=O)OC2,-,-,MIC bound,-,H37Rv,BACTEC,>12.5 µg/mL
COc1ccc(C2CC(c3ccc(O)c(C)c3)=NN2)cc1,6.25 µg/mL,-,inhibition,-,H37Rv,-,76%
CCCC(C)Sc1ccc(C(=S)NC)cc1,-,-,MIC,-,H37Rv,-,>315 µM
Cc1cc(C)c(/C=N/NC(=O)c2cc(-c3ccc(F)cc3F)ccc2O)c(C)c1,-,-,MIC,-,H37Rv,resazurin,>6.25 µg/mL
C[C@H]1COc2c(N3CCN(C)CC3)c(F)cc3c(=O)c(C(=O)O)cn1c23,-,-,MIC99,VERO Cell line,MS-115,-,2 µg/mL
CCCC(C)Sc1ccc(/C=C/C(N)=S)cc1,-,-,MIC,-,H37Rv,-,180 µM
COc1cc2c(cc1OC)C1CC3(CC4c5cc(OC)c(OC)cc5CCN4CC3CO)C(CO)CN1CC2,12.5 µg/mL,-,inhibition,-,H37Rv,BACTEC,39%
CCCCCCCSc1ccc(/C=C/C(N)=S)cc1,-,-,MIC,-,H37Rv,-,134 µM
O=c1oc(-c2cc(F)c(Cl)nc2Cl)ns1,-,-,MIC99,-,H37Rv,broth dilution,32 µg/mL
CO[C@H]1/C=C/O[C@@]2(C)Oc3c(C)c(O)c4c(O)c(c5c(c4c3C2=O)NC2(CCN(CC(C)C)CC2)N=5)=NC(=O)/C(C)=C\C=C\[C@H](C)[C@H](O)[C@@H](C)[C@@H](O)[C@@H](C)[C@H](OC(C)=O)[C@@H]1C,-,-,MIC,-,1 isolates (His526Asp),-,>5 µg/mL
C[C@@H]1[C@H]2C[C@@H](C[C@H]1NCCNCC(c1ccccc1)c1ccccc1)C2(C)C,-,-,MIC,-,-,-,6.25 µM
C=CC(O)C#CC#CC(O)/C=C\CCCCCCC,-,-,MIC90,-,Erdman,resazurin,6 µg/mL
CNC(=S)Sc1c(Cl)c(Cl)c(Cl)c(Cl)c1Cl,6.25 µg/mL,-,inhibition,-,H37Rv,resazurin,6%
O=C(N/N=C(\COc1cccc(Cl)c1)N=Cc1ccncc1)c1ccncc1,-,-,MIC,-,INH-r,-,50 µg/mL
CCO/C(CCn1[nH]c(=O)c(Cl)c(Cl)c1=O)=N\NC(=O)C(=O)NN,-,-,MIC bound,-,H37Rv,BACTEC,>12.5 µg/mL
CC(C)Sc1ccc(C(N)=S)cc1,-,-,MIC,-,H37Rv,-,284 µM
CC(OC1C(N)C(O)OC(CO)C1O)C(=O)O,-,-,MIC bound,-,H37Rv,BACTEC,>12.5 µg/mL
Cc1cccc(OC/C(N)=N\NC(=O)c2ccncc2)c1,-,-,MIC,-,H37Rv(ATCC25584),-,12.5 µg/mL
C[C@H](NCCNCCCCc1ccccc1)C1CCCCC1,-,-,MIC,-,-,-,50 µM
N/C(=N\N=C/c1c[nH]c2ccccc12)c1ccccn1,-,-,MIC,-,H37RV (INH RMP OFL-S),-,64 µg/mL
CCOC(=O)c1sc(N)nc1-c1ccccc1,6.25 µg/mL,-,inhibition,-,H37Rv,BACTEC,0%
CC(=O)OCC1=CC(=O)O[C@@H]1C/C=C(/CC/C=C(\C)CCC1=C(C)CCCC1(C)C)COC(C)=O,-,-,MIC90,-,-,broth dilution,26 µg/mL
O=c1oc(-c2ccc(F)cc2)ns1,-,-,MIC99,-,H37Rv,broth dilution,32 µg/mL
COc1cc2ccc(Br)cc2cc1[C@@H](c1ccc(Cl)cc1)[C@@](O)(CCN(C)C)c1ccccc1Br,-,-,MIC,-,Clinical isolate,resazurin,0.348 µg/mL
O=c1nc(-c2ccc(Cl)cc2)ss1,-,-,MIC90,-,H37Rv,broth dilution,16 µg/mL
Cc1cc(C(=O)/C=C/c2c(Cl)cccc2Cl)ccc1O,6.25 µg/mL,-,inhibition,-,H37Rv,-,90%
O=C(N/N=C/c1cccc(F)c1)c1cc(-c2ccc(F)cc2F)ccc1O,6.25 µg/mL,-,inhibition,-,H37Rv,resazurin,23%
O=C(Nc1ncc([N+](=O)[O-])s1)c1cccc([N+](=O)[O-])c1,-,-,MIC bound,-,H37Rv,resazurin,<6.25 µg/mL
CO[C@H]1/C=C/O[C@@]2(C)Oc3c(C)c(O)c4c(O)c(c(/C=N/N5CCN(C)CC5)c(O)c4c3C2=O)NC(=O)/C(C)=C\C=C\[C@H](C)[C@H](O)[C@@H](C)[C@@H](O)[C@@H](C)[C@H](OC(C)=O)[C@@H]1C,-,EJMCh6C MmpL3  (G253E),MIC90,-,H37Rv,visual reading / absorbance,0.6 µM
O=C(N/N=C/c1ccccc1F)c1cc(-c2ccc(F)cc2F)ccc1O,-,-,MIC,-,H37Rv,resazurin,>6.25 µg/mL
CCSc1ccc(C(N)=S)cc1,-,-,MIC,-,H37Rv,-,254 µM
COC1=CC(=O)c2c(O)c3c(c(O)c2C1=O)CC(C)(O)OC3,-,-,MIC bound,-,H37Rv,BACTEC,>12.8 µg/mL
CN1C(=O)C2(CCC(=O)CC2)c2ccccc21,-,-,MIC,-,H37Rv,-,0.05 µg/mL
O=C(O)[C@]1(O)C=C(F)[C@@H](O)[C@H](O)C1,-,-,MIC90,-,-,broth dilution,10 µg/mL
CCNC(=S)c1ccc(SC(C)C)cc1,-,-,MIC,-,H37Rv,-,334 µM
CC1CC(C)(C)NCCNC(C)CC(C)(C)NCCN1,6.25 µg/mL,-,inhibition,-,H37Rv,resazurin,7%
O=C1CC[C@H](O)c2ccccc21,-,-,MIC,-,H37Rv,-,4 µg/mL
COc1cc2ccc(Br)cc2cc1[C@@H](c1ccccc1)[C@@](O)(CCN(C)C)c1cccc(Br)c1,-,-,MIC,-,Clinical isolate,resazurin,0.084 µg/mL
O=C1CC(N2CCCCC2)C(=O)N1c1ccccc1,-,-,MIC bound,-,H37Rv,BACTEC,>12.5 µg/mL
COc1c([C@@H](c2ccccc2)[C@@](O)(CCN(C)C)c2cccc3ccccc23)cc2cc(Br)ccc2c1Br,-,-,MIC,-,Clinical isolate,resazurin,0.182 µg/mL
N/C(=N\N=C/c1cn(Cc2ccccc2Br)c2ccccc12)c1ccccn1,-,-,MIC,-,H37RV (INH RMP OFL-S),-,8 µg/mL
O=C(O)C1CCCC(C(=O)O)N1,-,-,MIC90,-,-,broth dilution,43 µg/mL
CCCCCCC/C=C\C(O)C#CC#CC(O)CCOC,-,-,MIC90,-,Erdman,resazurin,>60 µg/mL
O=c1nc(-c2ccc(F)cc2)ss1,-,-,MIC90,-,H37Rv,broth dilution,8 µg/mL
CCC(C)C(NC(=O)OCc1ccccc1)C(=O)NC(CO)C(=O)O,12.8 µg/mL,-,inhibition,-,H37Rv,BACTEC,35%
CCCCCCCCCCCNCCN[C@H](CO)Cc1ccccc1,-,-,MIC,-,-,-,25 µM

The first 5 rows once more:

SMILES,dose,mutations,read-out,cells,strain or isolate,read by,value
COc1c(OP2(=S)OCC(C)(C)CO2)cnn(C2CCCCC2)c1=O,-,-,MIC bound,-,H37Rv,BACTEC,>12.5 µg/mL
O=C(N/N=C(\COc1ccc([N+](=O)[O-])cc1)N=Cc1cccnc1)c1ccncc1,-,-,MIC,-,INH-r,-,100 µg/mL
COc1cc(C2CC(c3ccc(O)c(C)c3)=NN2)cc(OC)c1OC,6.25 µg/mL,-,inhibition,-,H37Rv,-,86%
COC1=C[C@@H]2[C@@H]3Cc4ccc(OC)c(O)c4[C@]2(CCN3C)CC1=O,-,-,MIC bound,-,H37Rv,BACTEC,>12.8 µg/mL
O=c1nc(-c2ccccc2Cl)ss1,-,-,MIC99,-,H37Rv,broth dilution,16 µg/mL

A number after MIC or MFC names an inhibition level or a share of isolates. MIC bound comes from a single tested concentration. Lines come from different laboratories, so protocols vary. Blank or dashed fields: not listed here. Percent inhibition refers to the dose given; in toxicity tests it is the harm to the cells.